Data from US20040055092A1, “Use of percarbamic acids and diacyl percarbamates and precursors therefor” (priority 2000, published 2004).

Assay: Tea-stained cotton fabric bleaching (CIE whiteness)
Conditions: 45 minutes, H2O2 5 g/l

OO [H2O2, Hydrogen peroxide]
CIE whiteness values (pH 5, 20° C., activator 3 g/l, starting fabric −30.8 (Example 12)): 0.6
CIE Whiteness (pH 5, 20° C., activator 3 g/l, starting fabric −34.4 (Example 4)): 24.5
CIE Whiteness (pH 5, 20° C., activator 3 g/l, starting fabric −52.4 (Example 10)): −27.3
CIE whiteness values (pH 5, 50° C., activator 3 g/l, starting fabric −30.8 (Example 12)): 23.1
CIE Whiteness (pH 5, 50° C., activator 3 g/l, starting fabric −34.4 (Example 4)): 35.5
CIE Whiteness (pH 5, 50° C., activator 3 g/l, starting fabric −52.4 (Example 10)): −2.3
CIE whiteness values (pH 5, 95° C., activator 3 g/l, starting fabric −30.8 (Example 12)): 60.8
CIE Whiteness (pH 5, 95° C., activator 3 g/l, starting fabric −34.4 (Example 4)): 62.2
CIE Whiteness (pH 5, 95° C., activator 3 g/l, starting fabric −52.4 (Example 10)): 33.9
CIE whiteness values (pH 7, 20° C., activator 3 g/l, starting fabric −30.8 (Example 12)): 13.6
CIE Whiteness (pH 7, 20° C., activator 3 g/l, starting fabric −34.4 (Example 4)): 39.1
CIE Whiteness (pH 7, 20° C., activator 3 g/l, starting fabric −52.4 (Example 10)): −0.3
CIE whiteness values (pH 7, 50° C., activator 3 g/l, starting fabric −30.8 (Example 12)): 36.6
CIE Whiteness (pH 7, 50° C., activator 3 g/l, starting fabric −34.4 (Example 4)): 43.1
CIE Whiteness (pH 7, 50° C., activator 3 g/l, starting fabric −52.4 (Example 10)): 5.3
CIE whiteness values (pH 7, 50°C., activator 0.1 g/l (Example 14)): 38.7
CIE whiteness values (pH 7, 95° C., activator 3 g/l, starting fabric −30.8 (Example 12)): 81.0
CIE Whiteness (pH 7, 95° C., activator 3 g/l, starting fabric −34.4 (Example 4)): 75.9
CIE Whiteness (pH 7, 95° C., activator 3 g/l, starting fabric −52.4 (Example 10)): 67.5
CIE whiteness values (pH 10, 20° C., activator 3 g/l, starting fabric −30.8 (Example 12)): 33.3
CIE Whiteness (pH 10, 20° C., activator 3 g/l, starting fabric −34.4 (Example 4)): 61.8
CIE Whiteness (pH 10, 20° C., activator 3 g/l, starting fabric −52.4 (Example 10)): 23.1
CIE whiteness values (pH 10, 50° C., activator 3 g/l, starting fabric −30.8 (Example 12)): 62.9
CIE Whiteness (pH 10, 50° C., activator 3 g/l, starting fabric −34.4 (Example 4)): 60.7
CIE Whiteness (pH 10, 50° C., activator 3 g/l, starting fabric −52.4 (Example 10)): 54.4
CIE whiteness values (pH 10, 50°C., activator 0.1 g/l (Example 14)): 62.9
CIE whiteness values (pH 10, 95° C., activator 3 g/l, starting fabric −30.8 (Example 12)): 78.2
CIE Whiteness (pH 10, 95° C., activator 3 g/l, starting fabric −34.4 (Example 4)): 77.8
CIE Whiteness (pH 10, 95° C., activator 3 g/l, starting fabric −52.4 (Example 10)): 70.6
CIE Whiteness (pH = 5, 50° C., activator 3 g/l (Example 15)): 35.6
CIE Whiteness (pH = 7, 50° C., activator 3 g/l (Example 15)): 43.6
CIE Whiteness (pH = 7, 95° C., activator 3 g/l (Example 15)): 69.6
CIE Whiteness (pH = 10, 50° C., activator 3 g/l (Example 15)): 60.3
CIE Whiteness (pH = 10, 95° C., activator 3 g/l (Example 15)): 79.5
